Two molecules from publication PMC12677607, “Identification of a Pair of Linear or Cyclic Naturally Inspired Bifunctional Lipopeptide Antibiotics That Overcome Antimicrobial Resistance” (Advanced Science, 2025) can be followed below.

The nature of the series: Isothermal titration calorimetry. The format is binding. As to conditions: Table S12; ITC, 20 mM HEPES pH 7.5. The procedure:
Calorimetric experiments were performed to evaluate the interaction between CL, PE, PG, or LPS and aquicidine L or aquicidine C4. To determine the affinity between aquicidine L or aquicidine C4 and CL, PE, or PG, both 2 mM CL, PE, or PG and 0.2 mM aquicidine L or aquicidine C4 were dissolved in 20 mM HEPES buffer (pH 7.5). To determine the interaction between LPS and aquicidine L or aquicidine C4, 2 mM LPS and 0.2 mM aquicidine L or aquicidine C4 were dissolved in H2O. Sequential injections of CL, PE, PG, or LPS into the calorimetric cell filled with aquicidine L or aquicidine C4 were repeated 20 times with equilibration intervals of 200 s. Data were collected by using a MicroCal PEAQ‐ITC instrument and calculated for the equilibrium dissociation constant (KD), change of enthalpy (ΔH), and change of entropy […].
For orientation: Isothermal titration calorimetry measures the heat released or taken up as one component is titrated into another.

Molecules are shown by their SMILES. Bridge positions count the residues as written; N and C are the ends. Square brackets hold non-standard residues; d marks the D form. Peptide text beside a SMILES is read from it. * marks the point of attachment. Myristoyl = CCCCCCCCCCCCCC(=O)*; Orn = NCCC[C@H](N)C(=O)O; Dab = NCC[C@H](N)C(=O)O; Dap = NC[C@H](N)C(=O)O

As to `CCCCCCCCCCCCCC(=O)N[C@@H](CN)C(=O)N[C@H](C(=O)N[C@@H](CC(C)C)C(=O)N[C@H]1COC(=O)[C@H](Cc2ccccc2)NC(=O)[C@H](CC(N)=O)NC(=O)[C@H](CCCN)NC(=O)[C@H]([C@@H](C)CC)NC(=O)[C@H](Cc2ccccc2)NC(=O)[C@H](CN)NC(=O)[C@H](CCN)NC1=O)[C@@H](C)O` [synAQU5-C4] (Myristoyl-[Dap]TLS[Dab][Dap]FI[Orn]NF; ester 4-C), the “ΔG (kcal/mol), CL” value is -12.66 kcal/mol; the “ΔG (kcal/mol), PE” value was -5.24 kcal/mol; the “ΔG (kcal/mol), PG” value is reported as -11.25 kcal/mol; the “ΔH (kcal/mol), CL” value was -0.73 kcal/mol. For the same molecule, the “ΔH (kcal/mol), PE” value is on record as -27.30 kcal/mol; the “ΔH (kcal/mol), PG” value is on record as -0.81 kcal/mol; the “ΔS (kcal/mol/K), CL” value came out at 0.040 kcal/mol/K; the “ΔS (kcal/mol/K), PE” value was -0.074 kcal/mol/K. The “ΔS (kcal/mol/K), PG” value amounted to 0.035 kcal/mol/K.

Take `CCCCCCCCCCCCCC(=O)N[C@@H](CN)C(=O)N[C@H](C(=O)N[C@@H](CC(C)C)C(=O)N[C@@H](CO)C(=O)N[C@@H](CCN)C(=O)N[C@@H](CN)C(=O)N[C@@H](Cc1ccccc1)C(=O)N[C@H](C(=O)N[C@@H](CCCN)C(=O)N[C@@H](CC(N)=O)C(=O)N[C@@H](Cc1ccccc1)C(=O)O)[C@@H](C)CC)[C@@H](C)O` [synAQU5-L] (Myristoyl-[Dap]TLS[Dab][Dap]FI[Orn]NF-OH): the “ΔG (kcal/mol), CL” value is -9.38 kcal/mol; the “ΔG (kcal/mol), PE” value is -6.09 kcal/mol; the “ΔG (kcal/mol), PG” value is -9.01 kcal/mol; the “ΔH (kcal/mol), CL” value is -1.03 kcal/mol. In addition, the “ΔH (kcal/mol), PE” value was -4.90 kcal/mol; the “ΔH (kcal/mol), PG” value is reported as -0.96 kcal/mol; the “ΔS (kcal/mol/K), CL” value was 0.028 kcal/mol/K; the “ΔS (kcal/mol/K), PE” value is on record as 0.004 kcal/mol/K. Moreover, the “ΔS (kcal/mol/K), PG” value is given as 0.027 kcal/mol/K.
